The exact form of at least one protein or probe is not confirmed. At least one verdict was read from the data and is not stated in words by the source.

This data set has as its system RNAP core (alpha2 beta beta' omega) + sigmaA. In words: EMSA. The conditions noted are these: holoenzyme; recombinant protein; label: SYBR Gold post-stain.
In the case of “CCGTCATGGCAAATGCCACCACAAGCCGCGTTGACACCGATCTGGATGCCCAAAGCCCGG (double strand) [Msm sigB +53]”, the binding result is “binds”.
For the sequence “CGAGAAGACGAGAAAGGGAGGCACAACGATGAGCACGCTGATGAAGACG (double strand) [Msm hsp20 +48]”, the binding result was “binds”.
For “GCCAAGCGCTACACCGGTCGCGGGATGCCGTTGCTCGACCTGATCCAGGAGGGGAACCTGG (double strand) [Msm sigB +349]” the value was “binds”; for “GTGTATCTGAACGGCATCGGCAAGACCGCATTGCTCAATGCCGCAGACGAAGTAGAACTCGC (double strand) [Msm sigB +130]”, “binds”.
For “TTCGGCCCGGCCGACGACTGGTTCAAGGGATTCACCCCGGCCGCCGAGGT (double strand) [Msm hsp20 +151]” the value was “binds”.

Source of the values: article PMC12781872.
